Pooled drug test results. Numbers come from NIAID ChemDB, via PubChem.

All rows: growth or infection tests

Inhibition is in % at the dose shown (toxicity tests: loss of growth or viability). An empty or dashed field is not shown. Fold resistance: result on the changed form divided by that on wild type. Lines come from different laboratories, so protocols vary. A number after MIC or MFC names an inhibition level or a share of isolates. ECn: concentration that inhibits the pathogen or its effect by n%.

structure,changes,method,strain or isolate,tested at,agent,endpoint,cell line,value
O=C(CCn1ccnc1)c1cccc2ccccc12,-,broth dilution,RTCC1248,-,Candida guilliermondii,MIC,-,64 µg/mL
Cc1cc(NS(=O)(=O)c2ccc(NC(=S)Nc3ccccn3)cc2)no1,-,syncytia,-,-,SIV,EC50,CEM174,8 µM
CCNC/C=C\CNCCCCNCCCCNCCCCNCC,-,-,-,-,Encephalitozoon cuniculi,EC50,-,137.5 µM
Cc1nc2ccc(Br)cc2c(=O)n1-c1nnc(-c2cccc(Cl)c2Cl)c(N)n1,-,cytopathic effect,-,-,Vesicular stomatitis virus,EC50,HeLa,>16 µg/mL
CC(=O)NC[C@H]1CN(c2ccc(-c3cc(C#N)cs3)c(F)c2)C(=O)O1,-,-,UC12084 (methicillin-resistant),-,Staphylococcus epidermidis,MIC,-,≤0.5 µg/mL
CN(C)c1cccc2c(S(=O)(=O)Nc3ccc(NC(=O)C(C)(C)CO)cc3)cccc12,-,plaque count,68-1,-,Rhesus cytomegalovirus,EC50,-,0.67 µM
Cc1cc(NS(=O)(=O)c2ccc(NC(=S)Nc3ccc(Cl)c(Cl)c3)cc2)no1,-,syncytia,-,-,SIV,EC50,CEM174,4.4 µM
NC(=NCCc1ccc(F)cc1)c1ccc(N2CCN(c3ccccc3)CC2)cc1,-,-,-,50 µg/mL,Pneumocystis carinii,inhibition,-,96%
O=C(Nc1cccc(-c2ccco2)c1)C1CCN(C(=O)c2n[nH]c3c2CCC3)CC1,-,PCR,JFH-1,15 µM,Hepatitis C virus,inhibition,Huh7,<40%
CCNc1c(F)cc2c(=O)c(C(=O)O)cn(-c3cc(N)c(F)cc3F)c2c1C,-,-,ATCC51519,-,Enterococcus faecium,MIC,-,8 µg/mL
Cc1cc(C#N)cc(C(=O)c2cc(Cl)ccc2OCC(=O)Nc2cnc(S(N)(=O)=O)cc2C)c1,RT-K103N G190A,β-galactosidase,HXB2 (RT-K103N G190A) Recombinant,-,HIV-1,fold resistance,HeLa + HELA CD4+,~1
CCNC/C=C\CNC/C=C\CNC/C=C\CNC/C=C\CNCC,-,-,-,-,Encephalitozoon cuniculi,EC50,-,>1000 µM
C/C=C/CSc1cc(NC(=S)c2ccsc2C)ccc1Cl,RT-V179D,p24,NL4-3,-,HIV-1,fold resistance,CEM + CEM-SS,9
O=C(Nc1cccc(-c2cccc(F)c2)c1)C1CCN(Cc2cccc3c2NSN3)CC1,-,PCR,JFH-1,15 µM,Hepatitis C virus,inhibition,Huh7,≥40%
CCc1nc(-n2c(C)nc3ccc(Br)cc3c2=O)nc(N)c1-c1ccc(Cl)cc1,-,cytopathic effect,-,-,Vesicular stomatitis virus,EC50,HeLa,>16 µg/mL
O=C(CCn1ccnc1)c1ccc(Cl)cc1,-,broth dilution,RTCC 1377,-,Candida guilliermondii,MIC,-,>64 µg/mL
Cc1cccc(NC(=S)Nc2ccc(S(=O)(=O)Nc3cc(C)on3)cc2)c1,-,syncytia,-,-,SIV,EC50,CEM174,2.1 µM
Cc1c(NCCO)c(F)cc2c(=O)c(C(=O)O)cn(-c3cc(N)c(F)cc3F)c12,-,-,W1418,-,Enterococcus faecium,MIC,-,>64 µg/mL
CCCCCCCCCCCCCCCCCCCCCCOCC(C)(COCCCCCCCCCCCCCCCCCCCCCC)CO[C@]1(C(=O)O)C[C@H](OS(=O)(=O)O)[C@@H](NC(C)=O)[C@H]([C@H](OS(=O)(=O)O)[C@@H](COS(=O)(=O)O)OS(=O)(=O)O)O1,-,plaque count,S-2 (serotype 2),-,Rotavirus,EC50,MA-104,1.7 µg/mL
Cc1cc(S(N)(=O)=O)ccc1NC(=O)COc1ccc(Cl)cc1C(=O)c1cc(F)cc(C(F)(F)F)c1,RT-G190E,β-galactosidase,HXB2,-,HIV-1,fold resistance,HeLa + HELA CD4+,~1
COc1c(N2C[C@@H]3CCCN[C@@H]3C2)c(F)cc2c(=O)c(C(=O)O)cn(C3CC3)c12,-,-,191 isolates,-,Streptococcus pyogenes,MIC90,-,0.24 µg/mL
CC(C)N=C(N)/N=C(\N)NOCCCOc1cc(Cl)c(Cl)cc1Cl,-,-,GRE,-,Mycobacterium avium complex,MIC,-,32 µg/mL
Cc1ccc(-n2cc(C(C)(C)O)nn2)cc1C,-,broth dilution,ATCC 22019,2048 µg/mL,Candida parapsilosis,inhibition,-,0%
CC(=O)NC[C@H]1CN(c2ccc(-c3ccn(CC#N)n3)c(F)c2)C(=O)O1,-,-,UC12084 (methicillin-resistant),-,Staphylococcus epidermidis,MIC,-,1 µg/mL
COC(=O)c1ccc(NC(=S)Nc2ccc(S(=O)(=O)Nc3cc(C)on3)cc2)cc1,-,syncytia,-,-,SIV,EC50,CEM174,1.7 µM
CC(C)(O)c1cn(-c2cccc3ccccc23)nn1,-,broth dilution,URM 4385,2048 µg/mL,Candida albicans,inhibition,-,0%
N=C(N)c1ccc(OCCCCCOc2ccc(C(=N)N)cc2)cc1,-,-,-,0.1 µg/mL,Pneumocystis carinii,inhibition,-,78%
COc1cccc(CN2CCC(C(=O)Nc3cccc(-c4cccc(F)c4)c3)CC2)c1O,-,PCR,JFH-1,5 µM,Hepatitis C virus,inhibition,Huh7,≥40%
CS(=O)(=O)Nc1ccc(NC(=O)COc2ccc(Cl)cc2C(=O)c2ccccc2)cc1,RT-K103N Y181C,β-galactosidase,HXB2 (RT-K103N Y181C) Recombinant,-,HIV-1,fold resistance,HeLa + HELA CD4+,~100
Cc1c(NC2CC2)c(F)cc2c(=O)c(C(=O)O)cn(-c3cc(N)c(F)cc3F)c12,-,-,ATCC51519,-,Enterococcus faecium,MIC,-,8 µg/mL
Cc1cc(NS(=O)(=O)c2ccc(NC(=S)Nc3ccc4ccccc4c3)cc2)no1,-,syncytia,-,-,SIV,EC50,CEM174,13.6 µM
O=C(NC1CC1)c1cc2c(s1)-c1ccccc1N(C(=O)c1ccc(NC(=O)c3ccccc3-c3ccccc3)cc1)CC2,-,plaque count,YM-53403-R01 Y1631H mutation,-,Respiratory syncytial virus,EC50,HeLa,>25 µM
Cc1cc(NS(=O)(=O)c2ccc(NC(=S)Nc3ccccc3Cl)cc2)no1,-,syncytia,-,-,SIV,EC50,CEM174,8 µM
Cc1cc(S(N)(=O)=O)ccc1NC(=O)COc1ccc(Cl)cc1C(=O)c1cc(F)cc(C#N)c1,RT-P225H,β-galactosidase,HXB2,-,HIV-1,EC50,HeLa + HELA CD4+,<0.01 µM
Cc1cc(NS(=O)(=O)c2ccc(NC(=S)Nc3ccc4c(c3)C(=O)OC4)cc2)no1,-,syncytia,-,-,SIV,EC50,CEM174,8.7 µM
CCNCCCCNC[C@@H]1C[C@@H]1CNCCCCNCC,-,-,-,-,Encephalitozoon cuniculi,EC50,-,166.5 µM
OC(CCn1ccnc1)c1ccc(-c2ccccc2)cc1,-,broth dilution,RTCC1248,-,Candida guilliermondii,MIC,-,>64 µg/mL
Cc1cc(Cl)cc(C(=O)c2cc(Cl)ccc2OCC(=O)Nc2ccc(S(N)(=O)=O)cc2C)c1,RT-K103N,β-galactosidase,HXB2,-,HIV-1,fold resistance,HeLa + HELA CD4+,~10
Nc1nc2c(ncn2COC(CO)CO)c(=O)[nH]1,-,plaque count,VR5611 (ganciclovir-susceptible),-,Human cytomegalovirus,EC50,-,2.9 µM
COc1cccc(CN2CCC(C(=O)Nc3cccc(-c4cccc(Cl)c4)c3)CC2)c1O,-,PCR,JFH-1,5 µM,Hepatitis C virus,inhibition,Huh7,≥40%
CC(=O)NC[C@H]1CN(c2ccc(-c3cc(CO)on3)c(F)c2)C(=O)O1,-,-,UC12084 (methicillin-resistant),-,Staphylococcus epidermidis,MIC,-,≤0.5 µg/mL
CCC(CC)[C@H](NC(C)=O)[C@@H]1[C@H](O)[C@@H](C(=O)O)C[C@H]1N=C(N)N,-,-,H1N1 A/NWS/33,-,Influenza A virus,EC50,MDCK,21 µM
O=C(Nc1cccc(-c2ccco2)c1)C1CCN(Cc2cccc3cccnc23)CC1,-,PCR,JFH-1,15 µM,Hepatitis C virus,inhibition,Huh7,≥40%
Cc1ccc(C(O)c2cccc(C(=O)CCn3ccnc3)c2)cc1,-,broth dilution,RTCC 1074,-,Candida kefyr,MIC,-,>64 µg/mL
Cc1cc(NS(=O)(=O)c2ccc(NC(=S)Nc3ccccc3F)cc2)no1,-,syncytia,-,-,SIV,EC50,CEM174,8.9 µM
CCOC(=O)c1cc2c(s1)-c1ccccc1N(C(=O)c1ccc(NC(=O)c3ccccc3-c3ccccc3)cc1)CC2,-,plaque count,LONG,-,Respiratory syncytial virus,EC50,HeLa,>25 µM
CC(C)(CCOc1ccc(-c2ccc(Cl)cc2)cc1)CCN1CCN(c2ccncc2)C1=O,-,cytopathic effect,Clinical isolate 71 (2231),-,Enterovirus,EC50,RD,0.14 µM
CCNCCCCNC/C=C\CNC/C=C\CNCCCCNCC,-,-,-,-,Encephalitozoon cuniculi,EC50,-,500 µM
CC(C)(O)c1cn(-c2ccc([N+](=O)[O-])cc2)nn1,-,broth dilution,URM 3624,2048 µg/mL,Candida parapsilosis,inhibition,-,0%
Cc1cc(NS(=O)(=O)c2ccc(NC(=S)NCCc3ccccc3)cc2)no1,-,syncytia,-,-,SIV,EC50,CEM174,4 µM
Nc1nc(-n2c(-c3ccccc3)nc3ccc(Br)cc3c2=O)nnc1-c1cccc(Cl)c1Cl,-,cytopathic effect,-,-,Vesicular stomatitis virus,EC50,HeLa,>16 µg/mL
CC(C)(O)c1cn(-c2ccc3ccccc3c2)nn1,-,broth dilution,URM 4386,2048 µg/mL,Candida albicans,inhibition,-,0%
NC(=NCCc1ccccc1)c1ccc(N2CCN(c3ccccc3)CC2)cc1,-,-,-,50 µg/mL,Pneumocystis carinii,inhibition,-,95%

Again, the opening 6 rows:

structure | changes | method | strain or isolate | tested at | agent | endpoint | cell line | value
O=C(CCn1ccnc1)c1cccc2ccccc12 | - | broth dilution | RTCC1248 | - | Candida guilliermondii | MIC | - | 64 µg/mL
Cc1cc(NS(=O)(=O)c2ccc(NC(=S)Nc3ccccn3)cc2)no1 | - | syncytia | - | - | SIV | EC50 | CEM174 | 8 µM
CCNC/C=C\CNCCCCNCCCCNCCCCNCC | - | - | - | - | Encephalitozoon cuniculi | EC50 | - | 137.5 µM
Cc1nc2ccc(Br)cc2c(=O)n1-c1nnc(-c2cccc(Cl)c2Cl)c(N)n1 | - | cytopathic effect | - | - | Vesicular stomatitis virus | EC50 | HeLa | >16 µg/mL
CC(=O)NC[C@H]1CN(c2ccc(-c3cc(C#N)cs3)c(F)c2)C(=O)O1 | - | - | UC12084 (methicillin-resistant) | - | Staphylococcus epidermidis | MIC | - | ≤0.5 µg/mL
CN(C)c1cccc2c(S(=O)(=O)Nc3ccc(NC(=O)C(C)(C)CO)cc3)cccc12 | - | plaque count | 68-1 | - | Rhesus cytomegalovirus | EC50 | - | 0.67 µM